According to PubChem BioAssay AID624415 (National Center for Advancing Translational Sciences (NCATS), 2012):
The entries are a selection whose mix differs from that of the whole data set. Activity calls are given as the source filed them. No stated cut-off is given here; in the data, active means activity change below about -50%; inconclusive means between about -30% and that limit; inactive means weaker than that.

Sequences of proteins named here, by UniProt entry; tags and fusion partners are left off.
UniProt Q9GZU1, whole entry: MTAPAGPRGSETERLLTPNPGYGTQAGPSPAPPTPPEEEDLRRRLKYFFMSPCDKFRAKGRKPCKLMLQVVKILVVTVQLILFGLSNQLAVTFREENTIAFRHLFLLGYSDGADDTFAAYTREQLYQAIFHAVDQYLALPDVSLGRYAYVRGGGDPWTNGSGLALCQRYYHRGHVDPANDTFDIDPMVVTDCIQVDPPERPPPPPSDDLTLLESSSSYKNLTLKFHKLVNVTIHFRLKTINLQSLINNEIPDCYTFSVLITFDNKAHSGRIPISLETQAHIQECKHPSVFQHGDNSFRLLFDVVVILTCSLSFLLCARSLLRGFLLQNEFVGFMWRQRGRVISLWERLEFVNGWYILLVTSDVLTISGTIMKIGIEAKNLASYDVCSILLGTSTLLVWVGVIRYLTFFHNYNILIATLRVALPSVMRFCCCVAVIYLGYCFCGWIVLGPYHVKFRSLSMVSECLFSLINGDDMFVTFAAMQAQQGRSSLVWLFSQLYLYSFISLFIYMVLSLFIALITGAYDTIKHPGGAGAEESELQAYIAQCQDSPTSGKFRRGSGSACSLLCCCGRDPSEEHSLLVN

Target: Mucolipin-1 (Homo sapiens) (UniProt Q9GZU1)
Experiment: qHTS for Inhibitors of the Human Mucolipin Transient Receptor Potential 1 (TRPML1);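 further: stimulus is agonist 54-4 at its EC80 concentration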
Conditions: TRPML1-inducible cells, Ca2+ dye fluorescence, FDSS; active compounds read low; inhibition of EC80 agonist-evoked calcium signal
From the text: Mutations of human Mucolipin transient receptor potential 1 (TRPML1) cause type IV mucolipidosis (ML4), a devastating neurodegenerative disease in young children. […] Currently, there is no treatment for ML4. […] Under physiological conditions, TRPMLs regulate membrane trafficking by transducing information about PI(3,5)P2 levels into changes in juxtaorganellar Ca2+, thereby triggering membrane fusion/fission events in the late endocytic pathways (endolysosomal trafficking). In addition, TRPML1 mediates release of Fe2+ from late endosomes and lysosomes, which is essential for cellular iron metabolism. Thus, impaired ion (Ca2+ and Fe2+) homeostasis underlies lysosomal dysfunction and ML4 phenotypes. In ML4 cells, the problem is twofold. First, defective Ca2+-dependent membrane trafficking due to TRPML1-deficiency causes accumulation of lipids and other bio-materials in the lysosome. The second strike comes from the lysosomal iron overload (due to impairment of TRPML1's Fe2+ conductivity), which converts the accumulated materials into the nondegradable (resistant to lysosomal degradation) lipofuscin (also called aging pigment) in the lysosome. Lipofuscin accumulation dramatically compromises the functions of lysosomes.
Niemann-Pick type C (NPC) disease is another lysosome storage disease (LSD) with severe neurodegeneration during the childhood. Currently, there is no cure for NPC. […] Thus, TRPML1 is likely to be an essential regulator of lysosome ion homeostasis. We specifically hypothesize that stimulating TRPML1's Fe2+/Ca2+ channel activity in the lysosome using synthetic agonists can alleviate neurodegeneration associated with ML4 or NPC.
To this end, a high throughput screen was developed in a miniaturized format to screen against the Molecular Libraries Small Molecule Repository (MLSMR) to find small molecules that act either as inhibitors or agonist against the TRPML1 channel.
NIH Chemical Genomics Center [NCGC]
NIH Molecular Libraries Probe Centers Network [MLPCN]
Assay Submitter (PI): Haoxing Xu, University of Michigan Ann Arbor
TRPML1-DL cells are dissociated from flasks, counted and, brought up to a density of 500,000 cells per mL of media containing a 1X Tet inducer. Using a Multidrop Combi, 3 uL of this cell solution is dispensed to each well of a 1536 TC treated, black, clear bottom hi base plate for a final cell density of 1,500 cells per well. The assay plates are incubated overnight (approximately 16 hours) at 37 degrees C and 5% CO2. Using a Multidrop Combi, 2 uL of ABD Ca8 no wash dye plus quencher is added to each well. The assay plates incubate at room temperature in the dark for 45-90 minutes. The assay plate is read on the FDSS using the following protocol: 10 second baseline read, 23 nL of compounds and controls are added using 1536 pintool, agonist read for 110 seconds, 1 uL EC80 addition (4 uM final 54-4 diluted in media), antagonist read for 110 seconds.
On the % scale 0 is the no-effect control and ±100 the full control effect.

SMILES	activity change, negative = inhibition
Nc1ccc2c(ccc3cccnc32)n1.O=[N+]([O-])c1cc([N+](=O)[O-])c(O)c([N+](=O)[O-])c1	inactive: 19.4%
O=C(O)CNc1ccc([As](=O)(O)O)cc1	inactive: -20.7%
O=[N+]([O-])c1cccc(NC2=NCC(CBr)S2)c1 (configuration not stated)	inactive: -0.506%
COC(=O)C1(C)COP(=O)(Nc2ccccc2)OC1 (configuration not stated)	inactive: 10.9%
O=[N+]([O-])c1ncn(CCn2ncnc2[N+](=O)[O-])n1	inactive: 2.77%
CC(C)(C)C(=O)NC(Sc1ccncn1)C(Cl)(Cl)Cl (configuration not stated)	inactive: -9.54%
CP(=O)(Oc1ccccc1)N1CCOC1=O (configuration not stated)	inactive: 2.99%
Cc1ccc(NP(=O)(Oc2ccccc2)Oc2ccccc2)nc1	inactive: -0.564%
O=[N+]([O-])c1cc([N+](=O)[O-])c(CCNc2ccccc2)c([N+](=O)[O-])c1	inactive: -0.907%
CCc1nc2c(n1)c1c(non1O)c1c2no[n+]1[O-]	inactive: -16.8%
CCc1ccc(OP(C)(=O)Nc2cccnc2)cc1 (configuration not stated)	inactive: -10.7%
COc1ccccc1OP(C)(=O)Nc1c(C)n(C)n(-c2ccccc2)c1=O (configuration not stated)	inactive: 4.08%
CC(=O)N1C2C3N(C(C)=O)C1C1N(C(C)=O)C(C(N1C(C)=O)N3C(C)=O)N2C(C)=O	inactive: 7.35%
O=[N+]([O-])c1cccc2n[nH]nc12	inactive: -1.59%
O=C(OCCCN1CCCC1)C(O)(c1ccccc1)C1CCCCC1 (configuration not stated)	inactive: 11.1%
CCN(CC)CC(O)COC(=O)C(O)(c1ccccc1)C1CCCCC1 (configuration not stated)	inactive: -9.32%
COc1ccc(OP(C)(=O)Nc2ccc(Br)cc2)cc1 (configuration not stated)	inactive: 4.17%
c1cc(-c2nn[nH]n2)ccc1-c1nn[nH]n1	inactive: -8.36%
CC1CCN(C(=O)Oc2c(Cl)cc(Cl)c3cccnc23)CC1	inactive: -1.41%
CC(C)=N/N=C(\N)N[N+](=O)[O-]	inactive: -0.286%
CN(C)C(=O)c1c([N+](=O)[O-])cc([N+](=O)[O-])cc1[N+](=O)[O-]	inactive: 18.7%
CC(C)c1nc(Nc2ccccc2)n(P(=O)(N(C)C)N(C)C)n1	inactive: -6.49%
CN(C)C(=O)OCCc1n(C)cc[n+]1C	inactive: -9.19%
CCN(/C(=N/P(=O)(N1CCOCC1)N1CCOCC1)N1CCOCC1)c1ccc(OC)cc1	inactive: -9.38%
CP(=O)(Nc1ccc(Cl)cc1)Oc1ccc(F)cc1 (configuration not stated)	inactive: -8.56%
Nc1ccc([As](=O)(O)c2ccc(N)cc2)cc1	inactive: 6.62%

SMILES	activity change, negative = inhibition
CC(C)(C)c1ccc(OP(C)(=O)O)cc1	inactive: -0.722%
COc1ccccc1OP(C)(=O)Nc1ccccc1Br (configuration not stated)	inactive: -5.99%
C[N+]1=C2C=CC=CC=C2SC12C([N+](=O)[O-])=CC([N+](=O)[O-])=C[C-]2[N+](=O)[O-] (configuration not stated)	inactive: 7.64%
CN(C)CCOC(=O)C(O)(c1ccccc1)C1CCCC1 (configuration not stated)	inactive: -5.88%
Clc1ccc(Cl)c(NC2=NCC(CBr)S2)c1 (configuration not stated)	inactive: -4.65%
CN1CCCC(OC(=O)C(c2ccccc2)c2ccccc2)C1 (configuration not stated)	inactive: -3.06%
COc1ccc(OP(C)(=O)Nc2ccccn2)cc1 (configuration not stated)	inactive: -14%
COc1ccccc1OP(=O)(Nc1ccc(C)cn1)Oc1ccccc1OC	inactive: -26.5%
Cc1ccc(OP(=O)(Nc2nccs2)Oc2ccc(C)cc2)cc1	inactive: 46%
COc1ccccc1OP(C)(=O)Nc1ccc(Br)cc1 (configuration not stated)	inactive: 9.78%
CN(C(=O)Cc1ccc(Cl)c(Cl)c1)[C@H]1CCCC[C@H]1N1CCCC1	inactive: 14.9%
Cc1ccc(N/C(=N/P(=O)(N2CCOCC2)N2CCOCC2)N2CCOCC2)cc1	inactive: -7.93%
NC(=O)c1cc([N+](=O)[O-])cc([N+](=O)[O-])c1N	inactive: 1.09%
CCc1ccc(OP(C)(=O)O)cc1	inactive: 14.5%
CP(=O)(Nc1ccccn1)Oc1ccccc1 (configuration not stated)	inactive: 10.2%
COc1ccccc1OP(C)(=O)Nc1ccc(C)cc1C (configuration not stated)	inactive: -15.7%
Oc1ccccc1CNc1ccccn1	inactive: 6.31%
O=C(NC(Sc1ccncn1)C(Cl)(Cl)Cl)c1ccccc1 (configuration not stated)	inactive: 5.23%
O=[N+]([O-])c1cc([N+](=O)[O-])c(Nc2ccccn2)c([N+](=O)[O-])c1	inactive: 8.4%
CC(C)CC(=O)NC(Sc1ccc(Cl)cc1)C(Cl)(Cl)Cl (configuration not stated)	inactive: -8.36%
Nc1cc(N)c2nonc2c1[N+](=O)[O-]	inactive: 12.1%
Cc1c(NP(C)(=O)Oc2ccc(C(C)C)cc2)c(=O)n(-c2ccccc2)n1C (configuration not stated)	inactive: 4.58%
COc1ccc(OP(C)(=O)Nc2ccccc2Br)cc1 (configuration not stated)	inactive: 2.65%
CCOP(=O)(Nc1ccccc1)OCC	inactive: -2.39%
Cc1cc(SC(NC(=O)c2ccc(F)cc2)C(Cl)(Cl)Cl)ncn1 (configuration not stated)	inactive: -9.17%
CN(C(=O)Cc1ccc(Cl)c(Cl)c1)[C@H]1CCCC[C@@H]1N1CCCC1	inactive: -12.6%

SMILES	activity change, negative = inhibition
Cc1ccc(NP(=O)(Oc2ccccc2F)Oc2ccccc2F)nc1	inactive: 19.3%
COc1ccccc1OP(C)(=O)Nc1ccc(C)c(C)c1 (configuration not stated)	inactive: -19%
CN(C)P(=O)(N(C)C)n1c(Nc2ccccc2)nnc1-c1ccccc1	inactive: 27.2%
Cc1cc(C)cc(OP(C)(=O)Nc2cccc(C(F)(F)F)c2)c1 (configuration not stated)	inactive: -4.95%
O=P(Nc1nc2ccc(Cl)cc2s1)(c1ccccc1)c1ccccc1	inactive: -19.9%
O=C(O)c1ccccc1[As](=O)(O)O	inactive: 32%
CC(=O)Nc1ccc([As](=O)(O)O)cc1	inactive: -8.67%
CCCC1OP(N)(=O)OCC1CC (configuration not stated)	inactive: -4.87%
Nc1cccc2ccc([As](=O)(O)O)cc12	inactive: 20.1%
CP(=O)(OCCOc1ccccc1)OCCOc1ccccc1	inactive: -14.1%
CCCCCCCCCCCCCCCC1C[N+](C)(C)CCOP(C)(=O)O1 (configuration not stated)	inactive: -0.604%
CP(=O)(Nc1ccc(Cl)cc1Cl)Oc1ccccc1 (configuration not stated)	inactive: -5.81%
CCN(N=Nc1nonc1N)c1nonc1N	inactive: -3.11%
CC(C)(C)c1ccc(OP(C)(=O)Nc2ccc(SC(F)(F)F)cc2)cc1 (configuration not stated)	inactive: 10.2%
Cc1ccc(OP(=O)(Nc2ccc([N+](=O)[O-])cn2)Oc2ccc(C)cc2)cc1	inactive: 28.6%
Cc1cccc(C)c1OP(C)(N)=O (configuration not stated)	inactive: 15.8%
Cc1ccc2nc3c(c(C)c2c1)CC(C(Cl)Cl)S3 (configuration not stated)	inactive: 3.97%
O=[N+]([O-])c1ccc2c(c1)C=Nc1ccccc1O2	inactive: -1.68%
O=[N+]([O-])c1cc([N+](=O)[O-])c(Nc2cccnc2)c([N+](=O)[O-])c1	inactive: 22.4%
C[As](=O)(O)c1cccc(C(=O)O)c1	inactive: 7.44%
O=[As](O)(c1ccc(O)cc1)c1ccccc1O	inactive: 19.8%
COc1cc(C(=O)NCC2(N3CCOCC3)CCCCC2)ccc1OCC(C)C	inactive: 7.95%
O=[N+]([O-])c1ccc(-c2cc([N+](=O)[O-])c(O)c([N+](=O)[O-])c2)cc1	inactive: -9.47%
CCN(CC)C(=S)SC(NC=O)C(Cl)(Cl)Cl (configuration not stated)	inactive: -10.1%
O=C(OC1CN2CCC1CC2)c1cccc2[nH]cnc12 (configuration not stated)	inactive: -24.9%
CC(C)NC(=O)NP(=O)(Oc1ccccc1)Oc1ccccc1	inactive: -11.8%

SMILES	activity change, negative = inhibition
COc1ccccc1OP(C)(=O)Nc1cc(Cl)ccc1C (configuration not stated)	inactive: -0.756%
O=[N+]([O-])c1cc([N+](=O)[O-])c(-c2ccn[nH]2)s1	inactive: -11.9%
COc1ccc(OP(C)(=O)Nc2cccc(F)c2)cc1 (configuration not stated)	inactive: 3.93%
Cc1cc(C)cc(OP(C)(N)=O)c1 (configuration not stated)	inactive: 10.1%
CCOC(=O)c1ccc(NP(C)(=O)Oc2ccccc2)cc1 (configuration not stated)	inactive: 5.59%
ClCCSc1nnc(-c2cccnc2)o1	inactive: 2.34%
COc1ccccc1OP(C)(=O)Nc1ccc(C)cc1 (configuration not stated)	inactive: 23%
Cc1ccc(NP(C)(=O)Oc2ccccc2)c(C)c1 (configuration not stated)	inactive: -2.54%
CC(C)c1ccc(OP(=O)(Nc2ccccn2)Oc2ccccc2F)cc1 (configuration not stated)	inactive: 21.3%
COC(=O)C1(C)COP(=O)(N2CCCCCC2)OC1 (configuration not stated)	inactive: -6.94%
O=P1(N(CCCl)CCCl)Nc2ccccc2N1	inactive: -13.9%
O=P1(N(CCCl)CCCl)OCCCN1CCCl (configuration not stated)	inactive: 18.4%
COc1ccc2nc(NP(=O)(c3ccccc3)c3ccccc3)sc2c1	inactive: -15.8%
COc1cc(I)ccc1[As](=O)(O)O	inactive: 19.9%
Cc1c2c(nc3ccccc13)SC(C(Cl)Cl)C2 (configuration not stated)	inactive: 58%
O=C(OC1CN2CCC1CC2)C12CC3CC(CC(C3)C1)C2 (configuration not stated)	inactive: 14.5%
Cc1cc(=O)[nH]c(N[N+](=O)[O-])n1	inactive: -2.58%
CCN(CC)CCCOC(=O)C(O)(c1ccccc1)c1ccccc1	inactive: 11.3%
O=[N+]([O-])c1cc(Oc2ccc([N+](=O)[O-])cc2C(F)(F)F)cc([N+](=O)[O-])c1	inactive: -17.4%
COc1ccc(N/C(=N/P(=O)(N2CCOCC2)N2CCOCC2)N2CCOCC2)cc1	inactive: -12.5%
CCc1ccc(OP(C)(=O)N2CCN(c3ccc([N+](=O)[O-])cc3)CC2)cc1 (configuration not stated)	inactive: 12.7%
CP(=O)(NC(=O)Nc1ccccc1)Oc1ccccc1 (configuration not stated)	inactive: 4.36%
O=C(COc1ccccc1)OC1CN2CCC1CC2 (configuration not stated)	inactive: 2.7%
O=C(Nc1ccncc1[N+](=O)[O-])c1ccc([N+](=O)[O-])cc1[N+](=O)[O-]	inactive: 6.52%
